# Reference: ChEMBL document CHEMBL4837229 (Eur J Med Chem, 2021)
# Tests used:
# [1] = tested on: Neuraminidase (Influenza A virus (strain A/USSR/90/1977 H1N1)), P03469 [H274Y]; experiment: Potency index, ratio of oseltamivir carboxylate IC50 to test compound IC50 for inhibition of Influenza A virus (A/California/04/2009 (H1N1)) Neuraminidase H274Y mutant using MUNANA as substrate preincubated for 5 to 15 mins followed by substrate addition and measured after 30 mins by fluorescence …
# [2] = target: Neuraminidase (Influenza A virus) (UniProt B4URF0); experiment: Potency index, ratio of oseltamivir carboxylate IC50 to test compound IC50 for inhibition of Influenza A virus (A/Anhui/1/2005(H5N1) Neuraminidase using MUNANA as substrate preincubated for 5 to 15 mins followed by substrate addition and measured after 30 mins by fluorescence spectrophotometric …
Compound,Ratio IC50 [1],Ratio IC50 [2]
CCCNNC(=O)N[C@H]1CC(C(=O)O)=C[C@@H](OC(CC)CC)[C@@H]1NC(C)=O,2.16,–
CCCCNNC(=O)N[C@H]1CC(C(=O)O)=C[C@@H](OC(CC)CC)[C@@H]1NC(C)=O,5.63,0.15
CCC(CC)O[C@@H]1C=C(C(=O)O)C[C@H](NC(N)=O)[C@H]1NC(C)=O,6.1,0.29
CCC(CC)O[C@@H]1C=C(C(=O)O)C[C@H](NC(=O)NN)[C@H]1NC(C)=O,6.23,4.12
